The list shows a part of the results. Env chains of viruses from a treatment-interruption trial, translated from the printed DNA. IC50 / IC80 of two broadly neutralizing antibodies; lower = more sensitive virus; >50 µg/ml means not reached and <0.001 µg/ml is below the lowest dose. No active / inactive call.
Experiments:
antibody 10-1074 [1] = assay: neutralization IC50; higher = virus less sensitive to the antibody
Description: (§1)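 Pseudovirus bearing the Env chain mixed with antibody, from 50 µg/ml in fivefold dilutions, on TZM-bl reporter cells, in duplicate.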

antibody 3BNC117 [2] = assay: as above
Description: as §1

antibody 10-1074 [3] = assay: neutralization IC80; higher = virus less sensitive to the antibody
Description: as §1

antibody 3BNC117 [4] = assay: as above
Description: as §1

B1: HIV-1 Env, reservoir clone (protein)
chain: MRAKGIRKNCQDLLKGGILLLGILMICSAAGNLWVTVYYGVPVWKDATTTLFCASDAKGYSKEAHNVWATHACVPTDPDPREVVMGNVTENFNMWKNDMVDQMHEDIISLWDQSLKPCVKLTPLCVTLNCTNLNLNVTNSNTSNGNWSEEMKNCSFNVTTIKGKYQTEYAVLYKLDLVPIDKNDNTSYMLINCNTSVITQACPKISFEPIPIHYCAPAGFAILKCNNKTFNGTGPCTNVSSVQCTHGIRPVVSTQLLLNGSLAEEEVVIRSENFTDNAKTIIVQLKDPIQINCTRPSNNTRKSIHIGPGRAFYATGQIIGDIRQAYCNISKEQWKEALNQTVRKLKEQFGNKTMIFNQSSGGDPEIVMHTFNCGGEFFYCNTAQLFNSTWYDTTNSTDSNNDTSKPIKLPCRIKQVINRWQEVGKAMYAPPIRGSIRCSSNITGLLLVRDGGNNNSSNSSETFRPGGGNMKDNWRSELYKYKVVKIEPLGVAPTKAKRRVVQRERRAVTLGAMFLGFLGTAGSTMGAASLTLTVQARQLLSGIVQQQSNLLRAIEVHQHMLQLTVWGIKQLQARVLAVERYLKDQQLLGIWGCSGKLICTTTVPWNTSWSKKNLSEIWDNMTWIEWEREIQNYTEEIYSLIEKSQNQQAKNEQELLELDKWANLWNWFDITNWLWYIKIFIMIVGGLIGLRIVFTVLSIVNRVRQGYSPLSFQTRLPTQRGPDRPGGTEEEGGERDRDTSRPLVDGFLAIIWVDLRSLFLFSYHRLRDLLLIVTRIVETLGRRGWELLKYWWNLLQYWSQELKNSAISLLNATAIAVAEGTDRVIELIQRAGRAIIHIPRRIRQGLESALL
- neutralization IC50 (antibody 10-1074 [1]): 0.561 mg/L
- neutralization IC50 (antibody 3BNC117 [2]): 0.225 mg/L
- neutralization IC80 (antibody 10-1074 [3]): 2.77 mg/L
- neutralization IC80 (antibody 3BNC117 [4]): 0.601 mg/L

B2: HIV-1 Env, reservoir clone (protein)
chain: MKAKETRKNYQHLWRWGIMLLGILMICSAASQLWVTVYYGVPVWKEATTTLFCASDAKAYDTEVHNVWATHACVPTDPNPQEVVLGNVTEDFNMWKNNMVEQMHEDIISLWDQSLKPCVKITPLCVTLNCTEYSNATSTTWGQMEKGEIKNCSFNVTTNIKNKMQKEYALFYKLDVVPIGDNSTNYRLIKCNTSAITQACPKVSFQPIPIHYCAPAGFAILKCNNKTFNGLGPCTNVSTVQCTHGIRPVVSTQLLLNGSLAEEEIVIRSENFSDNAKNIIVHLNASIEINCTRPNNNTRKSITIGPGRAFYATGDVIGDIRQAHCNISGEKWNEALKQIAIKLREQFGHNKTIVFNQSSGGDPEIVAHSVNCGGEFFYCNSTKLFNSTWHSNGTQNNTTESNETITLPCKIKQIINLWQEVGKAIYAPPISGPIRCSSNITGLLLTRDGGHTSETNKETFRPGGGDMRDNWRSELYKYKVVKIEPLGVAPTKAKRRVVQRERRAVGTFGALFLGFLGTAGSTMGAASITLTVQARQLLSGIVQQQNNLLKAIEAQQHLLQLTVWGIKQLQARVLAVERYLKDQQLLGLWGCSGKLICTTTVPWNASWSNKSLEQIWENMTWMQWEKEIDNYTGIIYSLISESQLQQEKNEKELLELDKWASLWTWFDITNWLWYIKIFIMIVGGLIGLRIVFAVLSIVNKVRKGYSPLSFQTRLPTPRGPDRPEGIEEEGGERGRDTSIRLVDGFLALIWDDLRNLCLFSYHHLRDLILIVVRTVELLGRRGWELLKYWWNLLKYWSQELKKSAVSLFNAAAIAVAEGTDRVIEVVQRAGRGILHVPRRIRQGLERALQ
- neutralization IC50 (antibody 10-1074 [1]): 0.001 mg/L
- neutralization IC50 (antibody 3BNC117 [2]): 0.01 mg/L
- neutralization IC80 (antibody 10-1074 [3]): 0.003 mg/L
- neutralization IC80 (antibody 3BNC117 [4]): 1.08 mg/L

B3: HIV-1 Env, reservoir clone (protein)
chain: MRAKGIRKNYQDLLKGGILLLGILMICSAAGNLWVTVYYGVPVWKDATTTLFCASDAKGYSKEAHNVWATHACVPTDPDPREIVMGNVTENFNMWKNDMVDQMHEDIISLWDQSLKPCVKLTPLCVTLKCTNLNNTNSNTSNTNNNTSSENGTSNTNNNTSSENGSEEMKNCSFNVTTIKGKYQQEYAFLYKLDLVPIDNNDNTSYMLINCNTSVITQACPKISFEPIPIHYCAPAGFAILKCNNKTFNGTGPCTNVSSVQCTHGIRPVVSTQLLLNGSLAEEEVVIRSENFTDNAKTIIVQLKDPIQINCTRPNNNTRKSIHIAPGRAFYATGQIIGDIRQAYCNISKEQWNEALNQTVRKLREQFGNKTIFFNQSSGGDPEIVMHTFNCGGEFFYCNTTQLFNSTWDNTTNSTDSNNDTIKLPCRIKQVINRWQEVGKAMYAPPISGPIRCSSNITGLLLVRDGGNNNSSNSSETFRPGGGNMKDNWRSELYKYKVVKIEPLGVAPTKAKRRVVQRERRAVTLGAMFLGFLGTAGSTMGAASLTLTVQARQLLSGIVQQQSNLLRAIEVHQHMLQLTVWGIKQLQARVLAVERYLKDQQLLGIWGCSGKLICTTTVPWNASWSKKNLSEIWDNMTWIEWEREIQNYTEEIYSLIEKSQNQQAKNEQELLELDKWANLWNWFDITQWLWYIKIFIMIVGGLIGLRIVFTVLSIVNRVRQGYSPLSFQTRLPTQRGPDRPEGTEEEGGERDRDTSRPLVDGFLAIIWVDLRSLFLFSYHRLRDLLLIVTRIVETLGRRGWELLKYWWNLLQYWSQELKNSAISLLNATAITVAEGTDRVIELIQRAGRAIIHIPRRIRQGLESALL
- neutralization IC50 (antibody 10-1074 [1]): 1.58 mg/L
- neutralization IC50 (antibody 3BNC117 [2]): 0.127 mg/L
- neutralization IC80 (antibody 10-1074 [3]): 13.4 mg/L
- neutralization IC80 (antibody 3BNC117 [4]): 0.33 mg/L

B4: HIV-1 Env, reservoir clone (protein)
chain: MRVKGIKKNYHILWKGGIWKWGIMLLGMLMICSASAQLWVTVYYGVPVWKEAITTLFCASDAKAYDTEVHNVWATHACVPTDPNPQEVSLTNVTENFNMWKNNMVEQMHEDIISLWDQSLKPCVKLTPLCVTLNCTEYKGNNATNNATKNDSSIEEVMKGEIQQCSFNVTTNIKDKMQKEYALFYKSDLVPINDETRNNSTNNSTNYRLISCNTSVITQACPKVTFEPIPIHYCAPAGYAILKCNDKKFNGTGPCKNVSTVQCTHGIRPVVSTQLLLNGSLAEEEVVIRSENLTNNAKTIIVQLTKSVAINCTRPNNNTRKSIPIGPGRAFYTTGDIIGNIRQAHCNISGKDWNDTLKQIATKLREQFNKTTIAFNQSSGGDPEIVMHSFNCGGEFFYCNTAKLFNSNWNSTKSNSTEGNDTITIPCKIKQVINLWQEVGKAMYAPPIRGQIKCSSNITGLLLTRDGGNNTNETMEIFRPEGGDMRDNWRSELYKYKVVRIEPLGIAPTKAKRRVVQREKRAVGFGALFLGFLGAAGSTMGAASMTLTVQARQLLSGIVQQQNNLLRAIEAQQHLLQLTVWGIKQLQARVLAVERYLQDRQLLGIWGCSGKLICTTAVPWNNSWSNKSVDYIWNNMTWMQWEKEIENYTGTIYRLLEDSQNQQEKNEHELLELDKWASLWNWFDITKWLWYIKIFIMIVGGLIGLRIIFAVLSILNRVRQGYSPLSFQIRPPAQRGPDRPEGIEEEGGERDRDTSGQLARGFLAIFWVDLRSLCLFSYHHLRDLLLIAARIVELLGRRGWEALNYWWNLLQYWIQELKNSAVSLLNATAIAVAEGTDRIIEIIQRAGRAIIHIPRRIRQGLERLLL
- neutralization IC50 (antibody 10-1074 [1]): 0.243 mg/L
- neutralization IC50 (antibody 3BNC117 [2]): 0.427 mg/L
- neutralization IC80 (antibody 10-1074 [3]): 0.586 mg/L
- neutralization IC80 (antibody 3BNC117 [4]): 0.847 mg/L

B5: HIV-1 Env, reservoir clone (protein)
chain: MRVKGIRKNYQDLLKGGILLLGILMICSAAGNLWVTVYYGVPVWKDATTTLFCASDAKGYNKEAHNVWATHACVPTDPDPREIVMGNVTENFNMWKNDMVDQMHEDIISLWDQSLKPCVKLTPLCVTLKCTNLKNNTNSNISSKNGSEEMKNCSFNVTTIKGKYQQEYAVLYKLDLVPIDNNDNTSYMLINCNTSVITQACPKISFEPIPIHYCAPAGFAILKCNNKTFNGTGPCTNVSSVQCTHGIRPVVSTQLLLNGSLAEEEVVIRSENFTDNAKTIIVQLKDPIQINCTRPNNNTRRSIHIAPGKAFYATGQIIGDIRQAHCNISKEQWNEALNQTVRKLREQFGNKTIFFNQSSGGDPEIVMHTFNCGGEFFYCNTTQLFNSTWDNTTNSTDSNNGNITLPCRIRQVINRWQEVGKAMYAPPISGPISCSSNITGLLLIRDGGNNNSSNSNETFRPGGGNMKDNWRSELYKYKVVKIEPLGVAPTKAKRRVVQRERRAVTLGAMFLGFLGTAGSTMGAASLTLTVQARQLLSGIVQQQSNLLRAVEVHQHLLQLTVWGIKQLQARVLAVERYLKDQQLLGIWGCSGKLICTTTVPWNASWSKKNLSQIWDNMTWIEWEREIQNYTEEIYSLIEKSQNQQAKNEQELLELDKWANLWNWFDITNWLWYIKIFIMIVGGLIGLRIVFTVLSIVNRVRQGYSPLSFQTRLPTQRGPDRPEGTEEEGGERDRDTSRPLVDGFLAIIWVDLRSLFLFSYHRLRDLLLIVTRIVETLGRRGWELLKYWWNLLQYWSQELKNSAISLLNATAIAVAEGTDRVIELIQRAGRAIIHIPRRIRQGLESALL
- neutralization IC50 (antibody 10-1074 [1]): 0.035 mg/L
- neutralization IC50 (antibody 3BNC117 [2]): 0.305 mg/L
- neutralization IC80 (antibody 10-1074 [3]): 0.191 mg/L
- neutralization IC80 (antibody 3BNC117 [4]): 0.974 mg/L

B6: HIV-1 Env, reservoir clone (protein)
chain: MRAKGIRKNYQDLLKGGILLLGILMICSAAGNLWVTVYYGVPVWKDATTTLFCASDAKGYNKEAHNVWATHACVPTDPDPREIVMGNVTENFNMWKNDMVDQMHEDIISLWDQSLKPCVKLTPLCVTLKCTNYSNGSRSEEMKNCSFNVTTIKGKYQKEYAVLYKLDLVPIDNNDNTSYMLINCNTSVITQACPKISFEPIPIHYCAPAGFAILKCNNKTFNGTGPCTNVSSVQCTHGIRPAVSTQLLLNGSLAEEEVVIRSENFTDNAKTIIVQLKDPIQINCTRPNNNTRRSIHIAPGRAFYATGQIIGNIRQAHCNISKEQWNEALNQTVRKLREQFGNKTIFFNQSSGGDPEIVMHTFNCGGEFFYCNTTQLFNSTWDNTTNSTDSNNDTITLPCRIKQVINRWQEVGKAMYAPPISGPISCSSNITGLLLIRDGGNNNSSNSNETFRPGGGNMKDNWRSELYKYKVVKIEPLGVAPTKAKRRVVQRERRAVTLGAMFLGFLGTAGSTMGAASLTLTVQARQLLSGIVQQQSNLLRAIEMQQHLLQLTVWGIKQLQARVLAVERYLKDQQLLGIWGCSGKLICTTTVPWNASWSKKNLSEIWDNMTWIEWEREIQNYTEEIYSLIEKSQNQQAKNEQELLELDKWANLWNWFDITNWLWYIKIFIMIVGGLIGLRIVFTVLSIVNRVRQGYSPLSFQTRLPTQRGPDRPEGTEEEGGERDRDTSRPLVDGFLAIIWVDLRSLFLFSYHRLRDLLLIVTRIVETLGRRGWELLKYWWNLLQYWSQELKNSAISLLNATAIAVAEGTDRVIELIQRAGRAIIHIPRRIRQGLESALL
- neutralization IC50 (antibody 10-1074 [1]): < 0.001 mg/L
- neutralization IC50 (antibody 3BNC117 [2]): 0.074 mg/L
- neutralization IC80 (antibody 10-1074 [3]): < 0.001 mg/L
- neutralization IC80 (antibody 3BNC117 [4]): 0.165 mg/L

— the supplement of paper PMC12637763
